Source: ChEMBL document CHEMBL2396622, “Interfacial cavity filling to optimize CD4-mimetic miniprotein interactions with HIV-1 surface glycoprotein” (J Med Chem, 2013)

Columns and labels:
[1] = target: Envelope glycoprotein gp160 (Human immunodeficiency virus type 1 group M subtype B (isolate SF162)(HIV-1)) (UniProt P19550); experiment: Displacement of soluble CD4 from HIV1 SF162 gp120 after overnight incubation by ELISA relative to M48; conditions: Human immunodeficiency virus type 1 (SF162 ISOLATE)
[2] = Displacement of soluble CD4 from HIV1 CN54 gp120 after overnight incubation by ELISA; design: species or system Human immunodeficiency virus 1
[3] = tested on: Human immunodeficiency virus 1; experiment: Displacement of soluble CD4 from HIV1 CN54 gp120 after overnight incubation by ELISA relative to M48
[4] = tested on: Human immunodeficiency virus 1; experiment: Antiviral activity against subtype C R5 tropic HIV1 p246F10 infected in human TZM-bl cells after 48 hrs by luciferase repoter gene assay; type: functional, organism-based; conditions: Human immunodeficiency virus 1, p246F10, TZM-bl
[5] = tested on: Human immunodeficiency virus 1; experiment: Antiviral activity against subtype B R5 tropic HIV1 Bal infected in human TZM-bl cells after 48 hrs by luciferase repoter gene assay; type: functional, organism-based; conditions: Human immunodeficiency virus 1, Bal
[6] = tested on: Human immunodeficiency virus 1; experiment: Antiviral activity against subtype B R5 tropic HIV1 pREJO.c/2864 infected in human TZM-bl cells after 48 hrs by luciferase repoter gene assay; type: functional, organism-based; conditions: Human immunodeficiency virus 1, pREJO.c/2864, TZM-bl
[7] = tested on: Human immunodeficiency virus 1; experiment: Antiviral activity against subtype C R5 tropic HIV1 VI1358 infected in human TZM-bl cells after 48 hrs by luciferase repoter gene assay; type: functional, organism-based; conditions: Human immunodeficiency virus 1, VI1358, TZM-bl
[8] = tested on: Human immunodeficiency virus 1; experiment: Antiviral activity against subtype C R5 tropic HIV1 VI829 infected in human TZM-bl cells after 48 hrs by luciferase repoter gene assay; type: functional, organism-based; conditions: Human immunodeficiency virus 1, VI829, TZM-bl
Procedure, shortened: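 TZM-bl cells (10⁴/well) pre-incubated 30 min at 37 °C, 5% CO₂ with serial compound dilutions, then infected with 200 TCID₅₀ virus; luciferase read after 48 h. Triplicate wells, single experiment; % inhibition versus untreated control plotted against concentration, EC₅₀ by non-linear regression.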

[9] = tested on: Human immunodeficiency virus 1; experiment: Ratio of IC50 for HIV1 CN54 gp120 to IC50 for HIV1 SF162 gp120
[10] = tested on: Human immunodeficiency virus 1; experiment: Antiviral activity against subtype B X4 tropic HIV1 3B infected in human TZM-bl cells after 48 hrs by luciferase repoter gene assay; type: functional, organism-based; conditions: Human immunodeficiency virus 1, 3B
[11] = target: Envelope glycoprotein gp160 (Human immunodeficiency virus type 1 group M subtype B (isolate SF162)(HIV-1), UniProt P19550); experiment: Displacement of soluble CD4 from HIV1 SF162 gp120 after overnight incubation by ELISA; design: species or system Human immunodeficiency virus type 1 (SF162 ISOLATE)
[12] = tested on: Human immunodeficiency virus 1; experiment: Antiviral activity against subtype B X4 tropic HIV1 3B infected in human GHOST cells; type: functional, organism-based; conditions: Human immunodeficiency virus 1, 3B
[13] = tested on: Human immunodeficiency virus 1; experiment: Antiviral activity against subtype C R5 tropic HIV1 VI829 infected in human GHOST cells; type: functional, organism-based; conditions: Human immunodeficiency virus 1, VI829, GHOST
[14] = tested on: Human immunodeficiency virus 1; experiment: Antiviral activity against subtype B R5 tropic HIV1 Bal infected in human GHOST cells; type: functional, organism-based; conditions: Human immunodeficiency virus 1, Bal
[15] = tested on: Human immunodeficiency virus 1; experiment: Antiviral activity against subtype C R5 tropic HIV1 VI1358 infected in human GHOST cells; type: functional, organism-based; conditions: Human immunodeficiency virus 1, VI1358, GHOST

| SMILES | Ratio IC50 [1] | IC50 [2] | Ratio IC50 [3] | EC50 [4] | EC50 [5] | EC50 [6] | EC50 [7] | EC50 [8] | Ratio IC50 [9] | EC50 [10] | IC50 [11] | EC50 [12] | EC50 [13] | EC50 [14] | EC50 [15] |
| --- | --- | --- | --- | --- | --- | --- | --- | --- | --- | --- | --- | --- | --- | --- | --- |
| CC(C)C[C@@H]1NC(=O)CNC(=O)[C@H](CC(C)C)NC(=O)[C@H](CO)NC(=O)[C@H](CCCCN)NC(=O)[C@@H]2CSSC[C@@H](C(=O)N[C@H](C(N)=O)C(C)C)NC(=O)[C@H](C)NC(=O)[C@@H]3CSSC[C@H](NC(=O)[C@H](Cc4ccccc4)NC(=O)[C@H](Cc4cnc[nH]4)NC(=O)[C@H](CC(C)C)NC(=O)[C@H](CC(N)=O)NC(=O)CCSSC[C@H](NC(=O)[C@H](CCCNC(=N)N)NC(=O)CNC(=O)[C@H](CC(C)C)NC1=O)C(=O)N[C@@H](C)C(=O)N1CCC[C@@H]1C(=O)N[C@@H]([C@@H](C)O)C(=O)N[C@@H](Cc1ccc(OCCCCCO)cc1)C(=O)N3)C(=O)N[C@@H](CCC(N)=O)C(=O)N[C@@H](CC(C)C)C(=O)N[C@@H](CCCNC(=N)N)C(=O)N2 | 0.6 | 2.4 nM | 0.83 | > 1000 nM | 17 nM | 682 nM | > 1000 nM | > 1000 nM | 8 | 1 nM | – | – | – | – | – |
| CC(C)C[C@@H]1NC(=O)CNC(=O)[C@H](CC(C)C)NC(=O)[C@H](CO)NC(=O)[C@H](CCCCN)NC(=O)[C@@H]2CSSC[C@@H](C(=O)N[C@H](C(N)=O)C(C)C)NC(=O)[C@H](C)NC(=O)[C@@H]3CSSC[C@H](NC(=O)[C@H](Cc4ccccc4)NC(=O)[C@H](Cc4cnc[nH]4)NC(=O)[C@H](CC(C)C)NC(=O)[C@H](CC(N)=O)NC(=O)CCSSC[C@H](NC(=O)[C@H](CCCNC(=N)N)NC(=O)CNC(=O)[C@H](CC(C)C)NC1=O)C(=O)N[C@@H](C)C(=O)N1CCC[C@@H]1C(=O)N[C@@H]([C@@H](C)O)C(=O)N[C@@H](Cc1ccc(OCCc4ccccc4)cc1)C(=O)N3)C(=O)N[C@@H](CCC(N)=O)C(=O)N[C@@H](CC(C)C)C(=O)N[C@@H](CCCNC(=N)N)C(=O)N2 | 0.6 | 11.7 nM | 4 | > 1000 nM | 22 nM | > 1000 nM | > 1000 nM | > 1000 nM | 37 | 1.2 nM | 0.32 nM | 3 nM | 951 nM | 67 nM | 364 nM |
| CC(C)C[C@@H]1NC(=O)CNC(=O)[C@H](CC(C)C)NC(=O)[C@H](CO)NC(=O)[C@H](CCCCN)NC(=O)[C@@H]2CSSC[C@@H](C(=O)N[C@H](C(N)=O)C(C)C)NC(=O)[C@H](C)NC(=O)[C@@H]3CSSC[C@H](NC(=O)[C@H](Cc4ccccc4)NC(=O)[C@H](Cc4cnc[nH]4)NC(=O)[C@H](CC(C)C)NC(=O)[C@H](CC(N)=O)NC(=O)CCSSC[C@H](NC(=O)[C@H](CCCN=C(N)N)NC(=O)CNC(=O)[C@H](CC(C)C)NC1=O)C(=O)N[C@@H](C)C(=O)N1CCC[C@@H]1C(=O)N[C@@H]([C@@H](C)O)C(=O)N[C@@H](Cc1ccc(OCCCCO)cc1)C(=O)N3)C(=O)N[C@@H](CCC(N)=O)C(=O)N[C@@H](CC(C)C)C(=O)N[C@@H](CCCN=C(N)N)C(=O)N2 | – | – | – | – | – | – | – | – | – | – | 0.86 nM | – | – | – | – |
| CC(C)C[C@@H]1NC(=O)CNC(=O)[C@H](CC(C)C)NC(=O)[C@H](CO)NC(=O)[C@H](CCCCN)NC(=O)[C@@H]2CSSC[C@@H](C(=O)N[C@H](C(N)=O)C(C)C)NC(=O)[C@H](C)NC(=O)[C@@H]3CSSC[C@H](NC(=O)[C@H](Cc4ccccc4)NC(=O)[C@H](Cc4cnc[nH]4)NC(=O)[C@H](CC(C)C)NC(=O)[C@H](CC(N)=O)NC(=O)CCSSC[C@H](NC(=O)[C@H](CCCN=C(N)N)NC(=O)CNC(=O)[C@H](CC(C)C)NC1=O)C(=O)N[C@@H](C)C(=O)N1CCC[C@@H]1C(=O)N[C@@H]([C@@H](C)O)C(=O)N[C@@H](Cc1ccc(OCCCCCO)cc1)C(=O)N3)C(=O)N[C@@H](CCC(N)=O)C(=O)N[C@@H](CC(C)C)C(=O)N[C@@H](CCCN=C(N)N)C(=O)N2 | – | – | – | – | – | – | – | – | – | – | 0.3 nM | – | – | – | – |
